These results are taken from article PMC5007486, “Thermodynamic instability of viral proteins is a pathogen-associated molecular pattern targeted by human defensins” (Scientific Reports, 2016).

This assay deals with HIV-1 Gag-Δp6.

Take “HNP-1: human neutrophil α-defensin peptide HNP-1, prepared by solid-phase peptide synthesis”: the “Temperature of destabilization of Gag-Δp6” value was “occurred at the lowest tested temperature”.
